Pooled drug test results. Numbers come from NIAID ChemDB, via PubChem.

All rows: tests in culture; species: Herpes simplex virus 2; cells: HEL; read-out: EC50

Blank or dashed fields: not listed here.

| compound | strain or isolate | read by | value |
|---|---|---|---|
| Nc1nc2c(ncn2COCCO)c(=O)[nH]1 | UW/TK- | plaque count | 250 µM |
| Nc1nc2c(ncn2CCCC(CO)CO)c(=O)[nH]1 | 91075 | plaque count | 5.1 µM |
| C/C(=N/NC(N)=S)c1ccc(NC(=O)CN2C(=O)c3ccccc3S2(=O)=O)cc1 | G | cytopathic effect | >100 µM |
| Nc1nc2c(ncn2CCC(CO)CO)c(=O)[nH]1 | 20 clinical isolates | plaque count | 2.4 µg/mL |
| CCCCCCCc1cc2cnc(=O)[nH]c2o1 | G | cytopathic effect | >200 µM |
| OC[C@H]1O[C@@H](n2c(SCc3ccccn3)nc3ccccc32)[C@H](O)[C@@H]1O | - | cytopathic effect | >100 µg/mL |
| Nc1nc2c(ncn2CC[C@@H](O)CO)c(=O)[nH]1 | 91075 | plaque count | 5.9 µM |
| CCCCCCCCC#Cc1c[nH]c(=O)[nH]c1=O | G | cytopathic effect | >40 µM |
| O=c1c2ncn(COC(CO)CO)c2nc2[nH]c(-c3ccc(F)cc3)cn12 | 196 | cytopathic effect | 1.92 µg/mL |
| Cc1cn([C@H]2CC[C@@H](OCC(=O)O)C2)c(=O)[nH]c1=O | G | cytopathic effect | >250 µM |
| OC[C@H]1O[C@@H](n2c(SCc3ccccn3)nc3cc(Cl)c(Cl)cc32)[C@H](O)[C@@H]1O | - | cytopathic effect | >50 µg/mL |
| Nc1nc2c(ncn2C[C@H](CO)CCO)c(=O)[nH]1 | R37 | cytopathic effect / ELISA | >100 µM |
| COc1ccc(-c2[nH]c3nc4c(ncn4COCCO)c(=O)n3c2C)cc1 | G | cytopathic effect | 1.92 µg/mL |
| Nc1nc2c(ncn2CCC(O)CO)c(=O)[nH]1 | R37 | cytopathic effect / ELISA | 8 µM |
| O=c1c2ncn(COCCO)c2nc2[nH]c(-c3ccc(C(F)(F)F)cc3)cn12 | 196 | cytopathic effect | >16 µg/mL |
| OCCOCn1c(SCc2ccccn2)nc2cc(Cl)c(Cl)cc21 | - | cytopathic effect | >50 µg/mL |
| CCCCCC#Cc1cn(S(=O)(=O)c2ccc(C)cc2)c(=O)[nH]c1=O | G | cytopathic effect | >40 µM |
| O=C(O)C(O[C@@H]1CC[C@H](n2cc(F)c(=O)[nH]c2=O)C1)P(=O)(O)O | G | cytopathic effect | >250 µM |
| Cc1ccc(S(=O)(=O)NNC(=O)c2ccccc2S(=O)(=O)NC(C)C)cc1 | G | cytopathic effect | >100 µM |
| Nc1nc2c(ncn2CC[C@@H](O)CO)c(=O)[nH]1 | 91075 | plaque count | 5.3 µM |
| OC[C@H]1O[C@@H](n2c(CCc3ccccn3)nc3ccccc32)[C@H](O)[C@@H]1O | - | cytopathic effect | >100 µg/mL |
| CCCCCCCC/C=C/CCCCCCCC(=O)O | HS-47 (TK+) | cytopathic effect | >100 µM |
| NC1=CC(c2ccccc2)=Nn2c(nnc2-c2cn(-c3ccccc3)nc2-c2ccccc2)S1 | G | cytopathic effect | >80 µg/mL |
| C#Cc1cn(S(=O)(=O)c2ccc(C)cc2)c(=O)[nH]c1=O | G | cytopathic effect | >200 µM |
| Nc1nc2c(ncn2C[C@]2(CO)C[C@H]2CO)c(=O)[nH]1 | 186 | plaque count | 0.24 µg/mL |
| Nc1nc2c(ncn2COC2COP(=O)(O)OC2)c(=O)[nH]1 | R37 | cytopathic effect / ELISA | >25 µM |
| CC1=Nn2c(nnc2-c2cn(-c3ccccc3)nc2-c2ccccc2)SC1 | G | cytopathic effect | >16 µg/mL |
| Cc1c(-c2ccc(C(F)(F)F)cc2)[nH]c2nc3c(ncn3COCCO)c(=O)n12 | LYONS | cytopathic effect | 9.6 µg/mL |
| CCCCCCCC/C=C/CCCCCCCC(=O)OCC(CO)OCn1cnc2c(=O)[nH]c(N)nc21 | HS-47 (TK+) | cytopathic effect | 0.0006 µM |
| Nc1nc2c(ncn2COC(CO)CO)c(=O)[nH]1 | R37 | cytopathic effect / ELISA | 0.4 µM |
| CCOC(=O)CSc1nnc(-c2cn(-c3ccccc3)nc2-c2ccccc2)n1N | G | cytopathic effect | >80 µg/mL |
| CC(=O)c1ccc(NC(=O)CN2C(=O)c3ccccc3S2(=O)=O)cc1 | G | cytopathic effect | >100 µM |
| Nc1nc2c(ncn2CC[C@H](O)CO)c(=O)[nH]1 | 91075 | plaque count | 42 µM |
| N#CC1=CSc2nnc(-c3cn(-c4ccccc4)nc3-c3ccccc3)n2N=C1N | G | cytopathic effect | >80 µg/mL |

For reference, 4 entries again:

compound | strain or isolate | read by | value
CC1=Nn2c(nnc2-c2cn(-c3ccccc3)nc2-c2ccccc2)SC1 | G | cytopathic effect | >16 µg/mL
Cc1c(-c2ccc(C(F)(F)F)cc2)[nH]c2nc3c(ncn3COCCO)c(=O)n12 | LYONS | cytopathic effect | 9.6 µg/mL
Nc1nc2c(ncn2CC[C@H](O)CO)c(=O)[nH]1 | 91075 | plaque count | 42 µM
N#CC1=CSc2nnc(-c3cn(-c4ccccc4)nc3-c3ccccc3)n2N=C1N | G | cytopathic effect | >80 µg/mL

ECn is the concentration giving n% inhibition of infection, replication or growth. Conditions beyond the fields shown may differ between rows.